Anti-infective test results gathered from many reports (values: NIAID ChemDB through PubChem).

Shared fields: host cell toxicity; cells: H9; measure: CC50

Blank or dashed fields: not listed here. CCn is the concentration with n% toxicity to the cells. Neighbouring rows are from separate reports.

smiles | method | result
CCOC(=O)c1cc(C(=O)c2ccc(F)c(N)c2)n2ccc(C(=O)NCc3ccccn3)cc12 | MTT | 120.5 µM
CCOC(=O)c1cc(C(=O)c2ccccc2)n2ccc(C(=O)NCc3cccnc3)cc12 | MTT | 114.1 µM
CC(C)[C@@H]1CC[C@]2(C(=O)O)CC[C@]3(C)[C@H](CC[C@@H]4[C@@]5(C)CC[C@H](OC(=O)CCCC(=O)O)C(C)(C)[C@@H]5CC[C@]43C)[C@@H]12 | - | 7.9 µM
CCOC(=O)c1cc(C(=O)c2ccccc2)n2ccc(C(=O)NCc3ccco3)cc12 | MTT | 98.2 µM
CCOC(=O)c1cc(C(=O)c2cccc(Br)c2)n2ccc(C(=O)NCc3ccccn3)cc12 | MTT | 54 µM
CCOC(=O)c1cc(C(=O)NCc2cccnc2)n2ccc(C(=O)c3ccco3)cc12 | MTT | 233.5 µM
CCN(CC)Cc1cc2ccc3c(c2oc1=O)[C@@H](OC(=O)C12CCC(C)(C(=O)O1)C2(C)C)[C@@H](OC(=O)C12CCC(C)(C(=O)O1)C2(C)C)C(C)(C)O3 | XTT | >14.1 µM
O=C(/C=C/c1ccc(O)c2c1[C@H](C(=O)O[C@H](Cc1ccc(O)c(O)c1)C(=O)O)[C@@H](c1ccc(O)c(O)c1)O2)O[C@H](Cc1ccc(O)c(O)c1)C(=O)O | - | >25 µM
Cc1c(COC(N)=O)c(=O)oc2c3c(ccc12)OC(C)(C)[C@H](OC(=O)C12CCC(C)(C(=O)O1)C2(C)C)[C@@H]3OC(=O)C12CCC(C)(C(=O)O1)C2(C)C | XTT | 33 µM
O=C(OC1[C@H](O)CC(O)(C(=O)O)C[C@H]1O)c1cc(O)c(O)c(O)c1 | - | 80 µM
Cc1cn([C@H]2C[C@H](N=[N+]=[N-])[C@@H](CO)O2)c(=O)[nH]c1=O | XTT | 1872 µM
CCOC(=O)c1cc(C(=O)c2ccc([N+](=O)[O-])cc2)n2ccc(C(=O)NCc3ccccn3)cc12 | MTT | 99.4 µM
COc1cc2c(c3oc(=O)c(C)c(C)c13)[C@@H](OC(=O)C13CCC(C)(C(=O)O1)C3(C)C)[C@@H](OC(=O)C13CCC(C)(C(=O)O1)C3(C)C)C(C)(C)O2 | XTT | >36.76 µM
CCOC(=O)c1cc(C(=O)NCc2ccccn2)n2ccc(C(=O)c3ccco3)cc12 | MTT | 107.3 µM
Cc1cc(=O)oc2c3c(c(CBr)cc12)OC(C)(C)[C@H](OC(=O)C12CCC(C)(C(=O)O1)C2(C)C)[C@@H]3OC(=O)C12CCC(C)(C(=O)O1)C2(C)C | XTT | >13.7 µM
CCOC(=O)c1cc(C(=O)c2ccccc2)n2ccc(C(=O)N[C@@H](Cc3c[nH]c4ccccc34)C(=O)OC)cc12 | MTT | 139 µM
Cc1cn([C@H]2C[C@H](N=[N+]=[N-])[C@@H](CO)O2)c(=O)[nH]c1=O | cell count | 500 µg/mL
CC(C)[C@@H]1CC[C@]2(C(=O)O)CC[C@]3(C)[C@H](CC[C@@H]4[C@@]5(C)CC[C@H](OC(=O)C(C)(C)C)C(C)(C)[C@@H]5CC[C@]43C)[C@@H]12 | - | 83 µM
CC1(C)Oc2ccc3cc(CC#N)c(=O)oc3c2[C@@H](OC(=O)C23CCC(C)(C(=O)O2)C3(C)C)[C@H]1OC(=O)C12CCC(C)(C(=O)O1)C2(C)C | XTT | >37.82 µM
O=C(O[C@@H]1Cc2c(O)cc(O)cc2O[C@@H]1c1ccc(O)c(O)c1)c1cc(O)c(O)c(O)c1 | - | >25 µM
Cc1c(CBr)c(=O)oc2c3c(ccc12)OC(C)(C)[C@H](OC(=O)C12CCC(C)(C(=O)O1)C2(C)C)[C@@H]3OC(=O)C12CCC(C)(C(=O)O1)C2(C)C | XTT | >20.9 µM
Cc1cn([C@H]2C[C@H](N=[N+]=[N-])[C@@H](CO)O2)c(=O)[nH]c1=O | XTT | 1873 µM
CC1(C)Oc2ccc3ccc(=O)oc3c2[C@@H](OC(=O)C23CCC(C)(C(=O)O2)C3(C)C)[C@H]1OC(=O)C12CCC(C)(C(=O)O1)C2(C)C | XTT | >16.1 µM
CC(C)[C@@H]1CC[C@]2(C(=O)OC(=O)N3CCOCC3)CC[C@]3(C)[C@H](CC[C@@H]4[C@@]5(C)CC[C@H](O)C(C)(C)[C@@H]5CC[C@]43C)[C@@H]12 | - | 35 µM
CCOC(=O)c1cc(C(=O)c2ccccc2N)n2ccc(C(=O)NCc3ccccn3)cc12 | MTT | 247.5 µM
CCOC(=O)c1cc(C(=O)c2ccccc2)n2ccc(C(=O)NCc3ccccc3)cc12 | MTT | 91.4 µM
CC(=O)OCc1cc2c(C)cc(=O)oc2c2c1OC(C)(C)[C@H](OC(=O)C13CCC(C)(C(=O)O1)C3(C)C)[C@@H]2OC(=O)C12CCC(C)(C(=O)O1)C2(C)C | XTT | >14.1 µM
COc1cc2c(c3oc(=O)c(CBr)c(C)c13)[C@@H](OC(=O)C13CCC(C)(C(=O)O1)C3(C)C)[C@@H](OC(=O)C13CCC(C)(C(=O)O1)C3(C)C)C(C)(C)O2 | XTT | >32.93 µM
CCOC(=O)c1cc(C(=O)c2ccccc2)n2ccc(C(=O)NCc3ccccn3)cc12 | MTT | 151 µM
Cc1cc(=O)oc2c3c(c(CN)cc12)OC(C)(C)[C@H](OC(=O)C12CCC(C)(C(=O)O1)C2(C)C)[C@@H]3OC(=O)C12CCC(C)(C(=O)O1)C2(C)C | XTT | >15 µM
CC(C)CC(=O)O[C@H]1CC[C@]2(C)[C@H]3CC[C@@H]4[C@H]5[C@H](C(C)C)CC[C@]5(C(=O)O)CC[C@@]4(C)[C@]3(C)CC[C@H]2C1(C)C | - | 83 µM
CCOC(=O)c1cc(C(=O)c2ccc(Cl)cc2)n2ccc(C(=O)NCc3ccccn3)cc12 | MTT | 142.2 µM
O=C(O)C1=C[C@@H](O)[C@@H](O)[C@H](OC(=O)c2cc(O)c(O)c(O)c2)C1 | - | 25 µM

The last 2 rows once more:

CCOC(=O)c1cc(C(=O)c2ccc(Cl)cc2)n2ccc(C(=O)NCc3ccccn3)cc12 ; method: MTT ; result: 142.2 µM
O=C(O)C1=C[C@@H](O)[C@@H](O)[C@H](OC(=O)c2cc(O)c(O)c(O)c2)C1 ; result: 25 µM